Literature values in publication PMC9962416.

Biological target: TLR4 (Homo sapiens) (UniProt O00206)
Experiment: SPR

Substance: SARS-CoV-2 spike protein (trimer) (from UniProt P0DTC2)
- Kd: 0.3 µM
